Reference: paper PMC9965906, “Discovery and Development Strategies for SARS-CoV-2 NSP3 Macrodomain Inhibitors” (Pathogens, 2023)
Some compounds may have been tested in ways that are not shown here.

Target: SARS-CoV-2 NSP3 Mac1 (Severe acute respiratory syndrome coronavirus 2, UniProt P0DTD1)
Conditions: FDA-approved compound library primary screen, single shot

## Sodium nitroprusside
  NSP3 Mac1 inhibition at 50 µM (%): 46.7%
